Compound potency records, mixed from different reports. Data source: NIAID ChemDB in PubChem.

Shared fields: tests in culture; agent: Vaccinia virus; measure: EC50

ECn is the concentration giving n% inhibition of infection, replication or growth. a–b is a range or a potency band. Neighbouring rows are from separate reports. Blank or dashed fields: not listed here.

smiles	cells	strain or isolate	value
CCc1cn([C@H]2C[C@H](O)[C@@H](CO)O2)c(=O)[nH]c1=O	BSC-1	-	27 µg/mL
O=C(CC1CCCCC1)N(O)c1ccc(Cl)cc1	E6SM	-	>80 µg/mL
Nc1ncnc2c1ncn2C[C@H](O)CO	HSF	-	10–20 µg/mL
OC[C@H]1O[C@@H](c2cc(/C=C/I)c(F)cc2F)C[C@@H]1O	E6SM	-	>400 µg/mL
Nc1nccc2c1ncn2[C@H]1CC[C@@H](CO)O1	VERO	-	>429 µM
CCOC(=O)CSc1nnc(-c2cn(-c3ccccc3)nc2-c2ccccc2)n1N	HEL	-	>80 µg/mL
Nc1ccn([C@@H]2O[C@H](CO)[C@@H](O)[C@H]2N)c(=O)n1	PRK	-	≥200 µg/mL
OC[C@H]1O[C@H](c2ccc(F)cc2F)C[C@@H]1O	E6SM	-	>400 µg/mL
OC[C@H]1O[C@@H](n2nnc3ccnc(Cl)c32)[C@H](O)[C@@H]1O	VERO	-	>370 µM
O=c1[nH]c(=O)n([C@H]2C[C@H](O)[C@@H](CO)O2)cc1-c1ccc(Br)o1	HEL	-	70 µg/mL
Cc1cc([C@H]2C[C@H](O)[C@@H](CO)O2)c(Cl)cc1F	E6SM	-	>400 µg/mL
COc1cc2c(cc1OC)[C@@H]1C(N)CSCON1CC2	E6SM	-	0.07 µg/mL
CC(=O)Nc1nc2c(CC(O)CO)nc(C)n2c(=O)[nH]1	PRK	-	>400 µg/mL
CCCCCCCC#Cc1c[nH]c(=O)[nH]c1=O	HEL	-	>40 µM
Nc1nccc2nn([C@@H]3O[C@H](CO)[C@@H](O)[C@H]3O)nc12	VERO	-	>398 µM
CO[C@H]1[C@H](O)[C@H](n2cnc3c(N)ncnc32)O[C@@H]1CO	PRK	-	20 µg/mL
CC(=O)N1C(=O)C(=Nc2ccc(S(=O)(=O)Nc3nc(C)cc(C)n3)cc2)c2cc(Cl)ccc21	HFF	-	>300 µM
CC(C)CS[C@@H]1C[C@H](n2cnc3c(N)ncnc32)[C@@H](O)[C@H]1O	E6SM	-	>80 µg/mL
O=[N+]([O-])c1cc([C@H]2C[C@H](O)[C@@H](CO)O2)c(F)cc1F	E6SM	-	>400 µg/mL
Nc1nc(Cl)c2ccn([C@H]3CO[C@@H](CO)C3)c2n1	E6SM	-	20 µg/mL
O=c1[nH]c(=O)n([C@H]2C[C@H](O)[C@@H](CO)O2)cc1Cl	Primary rabbit kidney cells	-	0.76 µM
OC[C@H]1O[C@@H](c2cc(Br)c(F)cc2F)C[C@@H]1O	E6SM	-	>400 µg/mL
CCOC(=O)C1=CN(COCCO)S(=O)(=O)NC1=O	E6SM	-	>400 µg/mL
Nc1nc2c(ccn2[C@H]2CO[C@@H](CO)C2)c(=O)[nH]1	E6SM	-	300 µg/mL
O=C(C1CCCCC1)N(O)c1ccc(Cl)cc1	E6SM	-	>80 µg/mL
Nc1nccc2c1ncn2[C@@H]1O[C@H](CO)[C@@H](O)[C@H]1O	VERO	-	14 µM
CCCc1cn([C@H]2C[C@H](O)[C@@H](COP(=O)(O)O)O2)c(=O)[nH]c1=O	HSF	-	>797 µg/mL
Cc1cn(C2CC(O[N+](=O)[O-])C(CO)O2)c(=O)[nH]c1=O	E6SM	-	>400 µg/mL
Nc1ncnc2c1ncn2[C@@H]1C[C@H](NC=O)[C@@H](O)[C@H]1O	HFF	-	>100 µg/mL
Cc1ccc2c(c1)C(=Nc1ccc(S(=O)(=O)Nc3nc(C)cc(C)n3)cc1)C(=O)N2	HFF	-	18 µM
Nc1ncnc2c1ncn2[C@@H]1O[C@H](CO)[C@@H](O)[C@@H]1O	PRK	-	0.3 µg/mL
Nc1nccc2c1ncn2[C@@H]1C[C@H](CO)[C@@H](O)[C@H]1O	VERO	Lederle chorioallantoic	1.9 µg/mL
S=c1[nH]nc(-c2cn(-c3ccccc3)nc2-c2ccccc2)o1	HEL	-	>16 µg/mL
O=C1C=CN(COCCO)S(=O)(=O)N1COCCO	E6SM	-	>400 µg/mL
CCCCc1cc2cnc(=O)[nH]c2o1	HEL	-	>200 µM
Cn1ccnc1-c1cn([C@H]2C[C@H](O)[C@@H](CO)O2)c(=O)[nH]c1=O	HEL	-	>200 µg/mL
Nc1ncnc2c1ncn2CC(O)CO	PRK	-	40–70 µg/mL
Nc1nccc2c1nnn2[C@H]1C[C@H](O)[C@@H](CO)O1	VERO	-	>396 µM
Nc1ncnc2c1ncn2[C@@H]1O[C@H](CO)[C@@H](O)[C@H]1OP(=O)(O)OC[C@H]1O[C@@H](n2cnc3c(N)ncnc32)[C@H](OP(=O)(O)OC[C@H]2O[C@@H](n3cc(F)c(=O)[nH]c3=O)C[C@@H]2O)[C@@H]1O	PRK	-	0.2 µg/mL
[N-]=[N+]=N[C@@H]1[C@H](O)[C@@H](CO)O[C@H]1n1cnc2c(=O)[nH]c(N)nc21	PRK	-	>200 µg/mL
CCc1cc([C@H]2C[C@H](O)[C@@H](CO)O2)c(F)cc1F	E6SM	-	>400 µg/mL
CS(=O)(=O)Cc1cn([C@H]2C[C@H](O)[C@@H](CO)O2)c(=O)[nH]c1=O	PRK	-	200 µg/mL
OC[C@H]1O[C@@H](c2cc(C#CI)c(F)cc2F)C[C@@H]1O	E6SM	-	>400 µg/mL
N=c1c2ncn([C@@H]3O[C@H](CO)[C@@H](O)[C@H]3O)c2ncn1OCc1cc(F)cc(F)c1	VERO	-	1.18 µg/mL
CC(=O)OCCOCN1C(N)=CC(N)=NS1(=O)=O	E6SM	-	>400 µg/mL
CCCCCCCCCCCCCCCCCCOCCOP(=O)(O)COCCn1cnc2c(=O)[nH]c(N)nc21	HFF	Copenhagen	0.013 µM
Cc1cc(C)nc(NS(=O)(=O)c2ccc(N=C3C(=O)N(C(=O)c4ccccc4)c4ccccc43)cc2)n1	HFF	-	230 µM
OC[C@H]1O[C@H](c2cc(F)c(F)cc2F)C[C@@H]1O	E6SM	-	>400 µg/mL
CCCCCC#Cc1c[nH]c(=O)[nH]c1=O	HEL	-	>200 µM
O=C1CSc2nnc(-c3cn(-c4ccccc4)nc3-c3ccccc3)n2N1	HEL	-	>16 µg/mL
CCCCC#Cc1c[nH]c(=O)[nH]c1=O	HEL	-	>200 µM
CO[C@@H]1[C@@H](OC(N)=O)[C@@H](O)[C@H](Oc2ccc3c(O)c(NC(=O)c4ccc(O)c(CC=C(C)C)c4)c(=O)oc3c2C)OC1(C)C	HeLa	Lister	25 µg/mL
CC(=O)Nn1c(-c2cn(-c3ccccc3)nc2-c2ccccc2)n[nH]c1=S	HEL	-	240 µg/mL
NC1CSCON2CCc3c([nH]c4ccccc34)[C@H]12	PRK	-	0.1 µg/mL
OC[C@H]1O[C@@H](n2nc3ccnc(Cl)c3n2)[C@H](O)[C@@H]1O	VERO	-	>398 µM
Nc1ccn([C@@H]2O[C@H](CO)[C@@H](O)[C@@H]2O)c(=O)n1	PRK	-	0.04 µg/mL
COc1ccc2[nH]c3c(c2c1)CCN1OCSCC(N)[C@@H]31	PRK	-	0.02 µg/mL
O=c1[nH]c(=O)n(C2CC(O[N+](=O)[O-])C(CO)O2)cc1F	E6SM	-	>400 µg/mL
O=c1[nH]c(=O)n([C@H]2C[C@H](O)[C@@H](CO)O2)cc1-c1ccc(Br)s1	HEL	-	70 µg/mL
Nc1nc2c(ncn2[C@@H]2O[C@H](CO)[C@@H](O)[C@H]2N)c(=O)[nH]1	PRK	-	>200 µg/mL
CC1=CC(=O)N(c2ccccc2)S(=O)(=O)N1COCCO	E6SM	-	>400 µg/mL
O=c1[nH]c(=O)n([C@H]2C[C@H](O)[C@@H](CO)O2)cc1-c1cc(-c2ccc(Cl)cc2)no1	E6SM	-	>40 µg/mL
Cc1nc(CC(O)CO)c2nc[nH]c(=O)n12	PRK	-	>400 µg/mL
Nc1nc(=O)n([C@H]2C[C@H](O)[C@@H](CO)O2)cc1-c1cccs1	HEL	-	20 µg/mL
Nc1ccn([C@@H]2C[C@H](CO)[C@@H](O)[C@H]2O)c(=O)n1	VERO	Lederle chorioallantoic	9 µg/mL
Cc1nc(Cc2ccccc2)c2[nH]c(=S)[nH]c(=O)n12	PRK	-	150 µg/mL
O=c1[nH]c(=O)n([C@H]2C[C@H](O)[C@@H](CO)O2)cc1I	Primary rabbit kidney cells	-	1.1 µM
OC[C@H]1O[C@@H](c2cc(Cl)c(F)cc2F)C[C@@H]1O	E6SM	-	>400 µg/mL
Nc1ncnc2c1ncn2[C@@H]1O[C@H](CO)[C@@H](O)[C@@H]1O	PRK	-	0.4 µg/mL
CCCCCCCCc1cc2cnc(=O)[nH]c2o1	HEL	-	>200 µM
Nc1ncnc2c1ncn2[C@@H]1O[C@H](CO)[C@@H](O)[C@H]1OP(=O)(O)OC[C@H]1O[C@@H](n2cnc3c(N)ncnc32)[C@H](OP(=O)(O)OC[C@H]2O[C@@H](n3cc(/C=C/Br)c(=O)[nH]c3=O)C[C@@H]2O)[C@@H]1O	PRK	-	7 µg/mL
COc1ncnc2c1ncn2[C@@H]1C[C@H](CO)[C@@H](O)[C@H]1O	VERO	Lederle chorioallantoic	21 µg/mL
N#Cc1cn([C@H]2C[C@H](O)[C@@H](CO)O2)c(=O)[nH]c1=O	Primary rabbit kidney cells	-	16 µM
CC(=O)OCCOCN1C=CC(=O)NS1(=O)=O	E6SM	-	>400 µg/mL